Anti-infective test results gathered from many reports (values: NIAID ChemDB through PubChem).

Common to all: tests in culture; species: HIV-1; read by: p24; endpoint: EC50

ECn is the concentration giving n% inhibition of infection, replication or growth.

structure,mutations,setting,cells,strain,value
CC(C)(C)NC(=O)[C@@H]1CN(Cc2cccnc2)CCN1C[C@@H](O)C[C@@H](Cc1ccccc1)C(=O)N[C@H]1c2ccccc2C[C@H]1O,,,PBMC,006,0.0032 µM
CCCN(C(=O)OCc1ccccc1)C1CCN(CCC(CN(C)S(=O)(=O)c2ccccc2)c2ccccc2)CC1,,,PBMC,YU-2 (M-tropic),<12.5 µM
CCc1cc(NCc2nc3c(C)ccc(C)c3o2)c(=O)[nH]c1C,,,MT-4,rA17,<100 µM
Cc1cn([C@H]2C[C@H](N=[N+]=[N-])[C@@H](CO)O2)c(=O)[nH]c1=O,,,PBMC,14a-Pre,0.0053 µM
Nc1ccn(CCOCP(=O)(O)O)c(=O)n1,,,MT-2,LAI,>100 µM
O=c1[nH]cnc2c1ncn2[C@H]1CC[C@@H](CO)O1,,,MT-4,IIIB,<6.25 µM
O=c1[nH]cnc2c1ncn2[C@H]1CC[C@@H](CO)O1,,clinical isolate,PBL,Clinical isolate,2.5 µM
O=c1ccn([C@H]2CC[C@@H](CO)O2)c(=O)[nH]1,,,JM,GBB,100 µg/mL
CCCOc1cc2cc[n+](C)c(CC)c2cc1OCCC,,,H9,IIIB,4.98 µg/mL
C=C(C)OC(=O)N1c2cc(Cl)ccc2NC(=S)C1(C)C,,,H9,MN,0.006 µg/mL
COc1cc2c(cc1OC)CC[NH+]=C2,,,H9,IIIB,<0.1 µg/mL
O=c1[nH]cnc2c1ncn2[C@H]1CC[C@@H](CO)O1,RT-K65R,,PBMC,HXB2D (RT-K65R),26.8 µM
CCOP(=O)(OC[C@H]1O[C@@H](n2cc(C)c(=O)[nH]c2=O)C[C@@H]1N=[N+]=[N-])C(=O)NCCc1ccccc1,,,MT-4,GKV-4046,0.0009 µM
Nc1ccn([C@H]2CC[C@@H](CO)O2)c(=O)n1,,,JM,GBB,<0.08 µg/mL
CCCCCCCCCCCCCCCCOCCCOP(=O)(O)COCCn1cc(F)c(=O)[nH]c1=O,,,MT-2,LAI,24 µM
C=CCN(C(=O)OCc1ccc([N+](=O)[O-])cc1)C1CCN(CCC(CN(C)S(=O)(=O)c2ccccc2)c2ccccc2)CC1,,,PBMC,YU-2 (M-tropic),<0.2 µM
COc1ccc(Cc2nccc3cc(OC)c(OC)cc23)cc1OC,,,JM,GBB,>2 µg/mL
Nc1ncnc2c1ncn2CCOCP(=O)(O)O,RT-L214F,,MT-2,L214F(RT-L214F),0.92 µM
CC1=C(CCC(=O)O)c2cc3nc(cc4[nH]c(cc5[nH]c(cc1n2)c(C)c5C(COC(=O)B([B]C1[B][B][B][B]1)C1[B][B][B][B]1)OC(=O)B([B]C1[B][B][B][B]1)C1[B][B][B][B]1)c(C)c4C(COC(=O)B([B]C1[B][B][B][B]1)C1[B][B][B][B]1)OC(=O)B([B]C1[B][B][B][B]1)C1[B][B][B][B]1)C(C)=C3CCC(=O)O,,,MT-2,IIIB,0.21 ± 0 µM
C[C@H](NC(=O)[C@H](CCCN=C(N)N)NC(=O)c1ccc(CNCc2ccccn2)cc1)c1cccc2ccccc12,,,PBMC,NL4-3 X4 laboratory isolate,0.042 µM
CCc1cc(CCc2nc3ccccc3o2)c(=O)[nH]c1C,,,MT-4,IIIB,<0.05 µM
CC(C)(C)NC(=O)[C@@H]1CN(Cc2cccnc2)CCN1C[C@@H](O)C[C@@H](Cc1ccccc1)C(=O)N[C@H]1c2ccccc2C[C@H]1O,RT-M41L E44D D67N T69D Y118I M184V L210W T215Y,,PBMC,4755-5 NRTI resistant recombinant,0.0094 µM
Cn1cnc2c(NCc3ccccc3)nc(NCCO)nc21,,,PBMC,THA/92/00 NSI CLADE E,>10 µM
COc1c2ccoc2cc2oc(=O)ccc12,,,H9,IIIB,0.354 µg/mL
Nc1ncnc2c1ncn2[C@@H]1O[C@H](CO)C[C@@H]1F,,,MT-2,HXB2D,5 µM
CC(C)Nc1cccnc1N1CCN(C(=O)c2cc3cc(NS(C)(=O)=O)ccc3[nH]2)CC1,,,PBMC,BaL,0.03 µM
Nc1nc2c(ncn2[C@H]2CO[C@@H](CO)O2)c(=O)[nH]1,RT-M184V,,PBMC,3TC-resistant (RT M184V) Clinical isolate,0.03 µM
Cc1cn([C@H]2C=C[C@@H](CO)O2)c(=O)[nH]c1=O,,,PBMC,006,0.36 µM
CCc1cc(OCc2nc3c(Cl)ccc(Cl)c3o2)c(=O)[nH]c1C,,,MT-4,IIIB,<0.2 µM
O=C(O[C@@H]1OC2CC(=O)c3cc(O)c(O)c(O)c3-c3c(cc(O)c(O)c3O)C(=O)OC2C2OC(=O)c3cc(O)c(O)c(O)c3-c3c(cc(O)c(O)c3O)C(=O)OC21)c1cc(O)c(O)c(O)c1,,,H9,IIIB,21 µM
O=c1[nH]cnc2c1ncn2[C@@H]1O[C@H](CO)C[C@@H]1F,RT-L214F,,MT-2,L214F(RT-L214F),16 µM
CCc1c2cc(O)c(O)cc2cc[n+]1C,,,H9,IIIB,<0.1 µg/mL
CCc1cc(CCc2nc3c(F)ccc(F)c3o2)c(=O)[nH]c1C,,,MT-4,IIIB,<0.05 µM
CCOC(=O)P(=O)(OC[C@H]1O[C@@H](n2cc(C)c(=O)[nH]c2=O)C[C@@H]1N=[N+]=[N-])OC12CC3CC(CC(C3)C1)C2,,,MT-4,GKV-4046,0.6 µM
Cc1ccnc2c1NC(=O)c1cccnc1N2C1CC1,,,PBMC,BaL,0.1 µM
CCOP(=O)(OC[C@H]1O[C@@H](n2cc(C)c(=O)[nH]c2=O)C[C@@H]1N=[N+]=[N-])C(=O)N1CCOCC1,,,MT-4,GKV-4046,<0.00021 µM
CO[C@H]1O[C@@H](n2ccc(=O)[nH]c2=O)C[C@@H]1N=[N+]=[N-],,,MT-2,LAI WT,>200 µM
C=CCN(C(=O)OCc1ccccc1)C1CCN(CC[C@](C)(CN(C)S(=O)(=O)c2ccccc2)c2ccccc2)CC1,,,PBMC,YU-2 (M-tropic),<0.075 µM
CC(C)Nc1cccnc1N1CCN(C(=O)c2cc3cc(NS(C)(=O)=O)ccc3[nH]2)CC1,,,PBL,IIIB,0.0001–0.001 µM
CC(C)CN(C[C@@H](O)[C@H](Cc1ccccc1)NC(=O)O[C@H]1CCOC1)S(=O)(=O)c1ccc(N)cc1,,,PBMC,14aPre WT,0.04 µM
CCc1cc(CCc2nc3c(C)cccc3o2)c(=O)[nH]c1C,,,MT-4,IIIB,<0.1 µM
O=c1[nH]c(=O)n(CCOCP(=O)(O)O)cc1F,,,MT-2,LAI,>100 µM
Nc1nc(NC2CC2)c2ncn([C@H]3C=C[C@@H](CO)C3)c2n1,,,PBMC,14aPre WT,0.42 µM
CCc1cc(CCc2nc3c(C)ccc(C)c3o2)c(=S)[nH]c1C,,,MT-4,IIIB,<0.2 µM
CC1=C(CCC(=O)O)c2cc3nc(cc4[nH]c(cc5[nH]c(cc1n2)c(C)c5CCOC(=O)B([B]C1[B][B][B][B]1)C1[B][B][B][B]1)c(C)c4CCOC(=O)B([B]C1[B][B][B][B]1)C1[B][B][B][B]1)C(C)=C3CCC(=O)O,,,MT-2,IIIB,0.33 ± 0.15 µM
COc1cc(CO)c(Cc2nccc3cc(OC)c(OC)cc23)cc1OC,,,H9,IIIB,>18.8 µg/mL
O=C(O)C1=CC(=C(c2ccc(O)c(C(=O)O)c2)c2ccc(O)c(C(=O)O)c2)C=CC1=O,,,C8166,RF,7 µg/mL
CCc1cc(CCc2nc3c(Cl)cccc3o2)c(=O)[nH]c1C,,,MT-4,IIIB,<0.1 µM
CC(C)(C)NC(=O)[C@@H]1C[C@@H]2CCCC[C@@H]2CN1C[C@@H](O)[C@H](Cc1ccccc1)NC(=O)[C@H](CC(N)=O)NC(=O)c1ccc2ccccc2n1,,,PBMC,006,0.0049 µM
Nc1ccn([C@H]2CC[C@@H](CO)O2)c(=O)n1,,,H9,HXB2D,0.6 µM
CCc1cc(SCc2nc3c(Cl)ccc(Cl)c3o2)c(=O)[nH]c1C,,,MT-4,IIIB,<0.0375 µM
Cc1cn([C@H]2C[C@H](N=[N+]=[N-])[C@@H](CO)O2)c(=O)[nH]c1=O,,,PBMC,R041290,0.6 µM
Cc1cn([C@H]2C[C@H](N=[N+]=[N-])[C@@H](CO)O2)c(=O)[nH]c1=O,,,PBMC,8564 CLADE D CLADE D,0.015 µM
O=c1[nH]cnc2c1ncn2[C@H]1CC[C@@H](CO)O1,RT-K65R M184V,,CBMC,HXB2-D (RT K65R M184V),18.5 ± 2.2 µM
CCN(C(=O)OCc1ccc([N+](=O)[O-])cc1)C1CCN(CC[C@](C)(CN(C)S(=O)(=O)c2ccccc2)c2ccccc2)CC1,,,PBMC,YU-2 (M-tropic),<0.1 µM
Cc1cn([C@H]2C[C@H](N=[N+]=[N-])[C@@H](CO)O2)c(=O)[nH]c1=O,RT-L100I V106A G190A,,H9,B9 (RT L100I V106A G190A),0.03 µg/mL
CCc1cc(CCc2nc3ccccc3o2)c(=S)[nH]c1C,,,MT-4,IIIB,<0.2 µM
CCc1cc(NCc2nc3c(Cl)ccc(Cl)c3o2)c(=O)[nH]c1C,,,MT-4,RFII,0.05 µM
CCc1cc(CCc2nc3c(F)cccc3o2)c(=O)[nH]c1C,,,MT-4,IIIB,<0.375 µM
CCCCCCCCCCCCCCCCOCCCOP(=O)(O)CO[C@H](CO)Cn1cnc2c(N)nc(N)nc21,,,MT-2,LAI,0.04 µM
CCCN(C(=O)OCc1ccc([N+](=O)[O-])cc1)C1CCN(CC[C@](CO)(CN(C)S(=O)(=O)c2ccccc2)c2ccccc2)CC1,,,PBMC,YU-2 (M-tropic),<0.1 µM
Nc1nc(N)c2ncn(CCOCP(=O)(O)O)c2n1,,,MT-2,LAI,0.15 µM
CN(C[C@@H](CCN1CCC2(CC1)CS(=O)c1ccccc12)c1cccc(Cl)c1)S(=O)(=O)c1ccccc1,,,PBMC,YU-2 (M-tropic),<12.5 µM
Nc1ncnc2c1ncn2CCOCP(=O)(O)O,,,MT-2,LAI,1.1 µM
CC(C)[C@H](NC(=O)c1ccc2ccccc2n1)C(=O)N[C@@H](Cc1ccccc1)[C@H](O)CN1CC[C@@H](OCc2ccncc2)C[C@H]1C(=O)NC(C)(C)C,,,PBMC,UHC-1,0.004 µM
COC(=O)[C@H](C)NP(=O)(OC[C@@H]1C=C[C@H](n2cc(C)c(=O)[nH]c2=O)O1)Oc1ccc(Br)cc1,RT-M41L K103N T215Y,,PBMC,S159-2 NRTI resistant,0.0008 µM
CCc1cc(NCc2nc3c(Cl)ccc(Cl)c3o2)c(=O)[nH]c1C,RT-P236L,,MT-4,DLV-resistant MF (RT-P236L),<0.43 µM
Cc1cn([C@H]2C=C[C@@H](CO)O2)c(=O)[nH]c1=O,,,PBMC,LTLV-IIIB,0.018 µM
CCc1cc(NCc2nc3ccccc3o2)c(=O)[nH]c1C,,,MT-4,IIIB,<0.2 µM

7 of the rows above, restated:

| structure | mutations | setting | cells | strain | value |
|---|---|---|---|---|---|
| Cc1cn([C@H]2C[C@H](N=[N+]=[N-])[C@@H](CO)O2)c(=O)[nH]c1=O |  |  | PBMC | 14a-Pre | 0.0053 µM |
| Nc1nc(N)c2ncn(CCOCP(=O)(O)O)c2n1 |  |  | MT-2 | LAI | 0.15 µM |
| CCc1cc(CCc2nc3c(C)ccc(C)c3o2)c(=S)[nH]c1C |  |  | MT-4 | IIIB | <0.2 µM |
| CCCN(C(=O)OCc1ccc([N+](=O)[O-])cc1)C1CCN(CC[C@](CO)(CN(C)S(=O)(=O)c2ccccc2)c2ccccc2)CC1 |  |  | PBMC | YU-2 (M-tropic) | <0.1 µM |
| CCCOc1cc2cc[n+](C)c(CC)c2cc1OCCC |  |  | H9 | IIIB | 4.98 µg/mL |
| Cc1cn([C@H]2C[C@H](N=[N+]=[N-])[C@@H](CO)O2)c(=O)[nH]c1=O |  |  | PBMC | R041290 | 0.6 µM |
| CCc1cc(CCc2nc3c(C)cccc3o2)c(=O)[nH]c1C |  |  | MT-4 | IIIB | <0.1 µM |

Two numbers with a dash give a range or band. Blank or dashed fields: not listed here. Rows are shuffled and stem from different studies.